This experiment deals with cytochrome b (Pfbc1 complex) (Plasmodium falciparum, UniProt Q02768). Kind of experiment: bc1 activity in extracted parasite mitochondria (decylubiquinol-driven cytochrome c reduction); supported by V259L resistance selection and Y268S cross-resistance.

As for `O=c1[nH]c(N2CCOCC2)nc2c1CCN(Cc1ccc(Cl)cc1F)CC2`, the concentration giving a half-maximal response (EC50) – broadly, the concentration that produces a half-maximal response – is 9.06 µM.
